Data: paper PMC3097197 (PLoS ONE, 2011)

Molecular target: YscN optimized catalytic domain (Yersinia pestis, UniProt Q7ARI8, C159S)

ATP was tested, and the “apparent Vmax” value (10 mM Tris pH 7.6, 150 mM NaCl, 1 mM Mg2+, 37°C) was 10.52±0.51 µmole Pi/min/mg of enzyme, the Km (read-out: apparent Km, 10 mM Tris pH 7.6, 150 mM NaCl, 1 mM Mg2+, 37°C) was 360 µM and the “Hill's coefficient” value (up to [ATP] = 4 mM) was 1.31±0.28.
